Data as given in PubChem BioAssay AID1259414 (Drosophila RNAi Screening Center, 2018)

- Test: 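Fly genes that alter Wolbachia amount inside host cells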 (primary screen)
- Cell system: Drosophila JW18 cells infected with Wolbachia
- Reagent: long dsRNA against Drosophila genes, 0.25 µg dsRNA per well of a 384-well plate
- Timing: 5 days
- Treatment: cells persistently infected with Wolbachia before knock-down; no added drug
- Measurement: 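Imaged fluorescence in situ signal for Wolbachia 23S rRNA per DAPI-counted host cell, given as a robust z-score within each plate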
- Reading the numbers: Wolbachia per cell robust z: higher = more Wolbachia per host cell than the plate typical
- Hit rule: 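Active if absolute robust z reaches 1.5 in two or more of three replicates, leaving out multi- or no-target dsRNAs, genes unexpressed in JW18 and A1 wells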
In all, the deposit lists about 24,000 reagents; this is a random part of those that have a named target and a result. Of all reagents, about 1,210 (5%) got an active call. 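Inactive calls also include excluded dsRNAs with several or no targets, genes unexpressed in JW18, and well A1, regardless of score.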 A number with no mark means an inactive call. A plus sign joins genes that one reagent is predicted to hit. Reagent sequences are not shown.

Target gene	DRSC id	Wolbachia per cell robust z, rep 1	Wolbachia per cell robust z, rep 2	Wolbachia per cell robust z, rep 3
mio	DRSC00692	0.0684	0.934	0.0346
mio	DRSC22056	-0.0346	0.211	-0.603
Cc2d2a	DRSC06750	0.603	-1.33	0.34
Cc2d2a	DRSC06779	-0.803	-0.281	-1.16
Cc2d2a	DRSC26325	0.0477	0.106	-0.908
rod	DRSC17047	0.506	-1.57	0.969
Hrd3	DRSC14156	0.457	0.606	-0.272
Hrd3	DRSC41536	1.01	1.67	0.899
Naprt	DRSC00630	-1.08	-0.668	0.645
Naprt	DRSC28652	0.666	-0.473	-0.0892
CG34461	DRSC10767	-0.458	-0.928	0.261
Orc1	DRSC07496	1.63	-1.53	1.13
Orc1	DRSC41424	-0.67	0.107	0.666
RpL31	DRSC06716	1.42	1.34	1.26
RpL31	DRSC29618	0.781 (active)	1.88	2.54
Cap-H2	DRSC14908	0.869	-0.792	0.811
CG4709	DRSC02772	-6.12	-0.722	-0.862
PIG-M + CG42380 + CG42381 + 1 more	DRSC04580	-0.534	0.697	0.535
CG3517	DRSC15492	0.643	0.314	0.317
CG3517	DRSC26928	-0.594	-1.5	-1.43
dpa	DRSC07604	0.736	0.621	1.14
CG14454	DRSC11711	1.2	0.458	0.396
CG14454	DRSC23866	0.265	0.343	-0.568
CG4907	DRSC15673	0.527	0.853	0.962
CG34447	DRSC00741	0.618	-0.221	0.126
CG34447	DRSC41473	-0.189	-0.625	-0.674
Nsun2	DRSC18662	0.744	0.968	0.956
Nsun2	DRSC28657	0.968	-1.01	1.01
f	DRSC19174	0.674	0.253	0.812
f	DRSC19516	-0.805	-1.95	-0.0097
f	DRSC20331	-0.45	0.813	0.349
f	DRSC25251	0.176	-0.647	-0.736
f	DRSC28735	0.0883	0.717	0.346
MFS12	DRSC07268	-0.536	0.481	1.7
RhoGAP18B	DRSC19763	0.756	0.718	1.28
RhoGAP18B	DRSC20047	0.672	0.145	0.51
RhoGAP18B	DRSC20048	-0.226	0.000275	-0.282
RhoGAP18B	DRSC20049	-0.999	-0.827	-1.46
RhoGAP18B	DRSC25093	0.378	1.44	-0.386
CG11034	DRSC02121	1.14	-0.32	0.133
CG11034	DRSC02122	0.428	0.555	0.985
CG30197	DRSC22394	-0.743 (active)	-1.66	-2.11
stil	DRSC07699	-1.02	-1.04	-0.0492
CG14424	DRSC18472	-1.07	0.0706	-1.47
CG14424	DRSC29124	1.03	0.318	0.865
Flad1	DRSC19898	0.278	-2.37	0.421
CG8568	DRSC20113	-0.653	0.168	-0.157
CG8568	DRSC26687	0.323	0.273	0.211
Lam	DRSC03359	0.726	1.67	1.17
Lam	DRSC28152	0.668	0.758	0.388
CG7135	DRSC20026	-2.09	-0.983	-0.346
CG7135	DRSC29942	-1.43	-1.55	-0.476
Abca3	DRSC20546	-0.896	0.428	0.66
CG4511	DRSC15589	-2.79	0.0791	-0.233
CG4511	DRSC28640	0.0164	0.954	0.349
CG18598	DRSC15356	0.281	-3.94	-0.292
CG18179	DRSC10303	-2.48	-1.13	-0.817
CG18179	DRSC25528	-0.399	-0.584	1.52
CG18179	DRSC41288	0.373	-1.34	-1.25
CG9406	DRSC04552	-1.44	-0.052	-0.741
CG31815	DRSC01548	-0.00584	0.0625	-0.348
CG31815	DRSC29263	-0.136	-0.428	0.403
nis	DRSC00290	-6.43	-3.3	-0.884
Cpr	DRSC03293	0.676	0.484	-0.794
Cpr	DRSC28411	-0.239	0.105	0.0204
Sfxn2	DRSC10718	0.0243 (active)	-2.09	-2.05
CG10005	DRSC14172	0.0293	-6.71	1.66
Dyrk2	DRSC03610	0.576 (active)	-6.3	-3.82
Dyrk2	DRSC29029	0.264	0.37	1.42
CG14314	DRSC14793	0.436	-0.179	-0.95
Gpat4	DRSC04345	-0.84	-1.41	-0.622
CG12680	DRSC17871	-0.348	-0.103	-1.96
stc	DRSC03620	-0.397	0.087	-0.778
stc	DRSC40850	-1.58 (active)	-1.72	-0.647
Ack-like	DRSC07500	0.493	-1.01	-0.981
Ack-like	DRSC21845	-0.478	-2.06	-1.42
Ack-like	DRSC28341	-1.23	-0.301	-0.36
CG32536 + CG32537	DRSC20074	0.531	0.504	1.04
CG2059	DRSC18203	0.559	-0.271	0.822
Arpc3A	DRSC15596	1.95	0.445	0.144
Arpc3A	DRSC27915	0.00698	0.887	0.268
KCNQ	DRSC06121	0.917	-3.82	0.444
KCNQ	DRSC06230	-6.1	-0.201	-0.383
KCNQ	DRSC25242	0.566	-0.308	-0.242
Ets97D	DRSC16665	0.597	0.397	0.964
Ets97D	DRSC27682	0.244	-2.83	0.356
CG8366	DRSC07153	0.164	-0.00499	-0.0738

Called active, of those listed so far:
Target gene	DRSC id	Wolbachia per cell robust z, rep 1	Wolbachia per cell robust z, rep 2	Wolbachia per cell robust z, rep 3
RpL31	DRSC29618	0.781 (active)	1.88	2.54
CG30197	DRSC22394	-0.743 (active)	-1.66	-2.11
Sfxn2	DRSC10718	0.0243 (active)	-2.09	-2.05
Dyrk2	DRSC03610	0.576 (active)	-6.3	-3.82
stc	DRSC40850	-1.58 (active)	-1.72	-0.647
